Test results reported in patent publication US20220089698A1, “ANTIBODIES THAT TARGET HIV GP120 AND METHODS OF USE” (published 2022).

Columns and labels:
Assay in all cases: cell-based or functional assay
[1] = biological target: HIV-1 envelope glycoprotein (Env, gp120) of virus 1489 (HIV-1)
[2] = biological target: HIV-1 envelope glycoprotein (Env, gp120) of virus 7015 (HIV-1)
[3] = biological target: HIV-1 envelope glycoprotein (Env, gp120) of virus 8110 (HIV-1)
[4] = biological target: HIV-1 envelope glycoprotein (Env, gp120) of virus 8176 (HIV-1)
[5] = biological target: HIV-1 envelope glycoprotein (Env, gp120) of virus CHO77 (HIV-1)
[6] = biological target: HIV-1 envelope glycoprotein (Env, gp120) of virus VS042 (HIV-1)
[7] = biological target: HIV-1 envelope glycoprotein (Env, gp120) of virus 92HT593 (HIV-1)
[8] = biological target: HIV-1 envelope glycoprotein (Env, gp120) of virus 92US712 (HIV-1)
[9] = biological target: HIV-1 envelope glycoprotein (Env, gp120) of virus 92US657 (HIV-1)
[10] = biological target: HIV-1 envelope glycoprotein (Env, gp120) of virus 7576 (HIV-1)
[11] = biological target: HIV-1 envelope glycoprotein (Env, gp120) of virus 7051 (HIV-1)
[12] = biological target: HIV-1 envelope glycoprotein (Env, gp120) of virus VS017 (HIV-1)
[13] = biological target: HIV-1 envelope glycoprotein (Env, gp120) of virus VS046 (HIV-1)
[14] = biological target: HIV-1 envelope glycoprotein (Env, gp120) of virus VS001 (HIV-1)
[15] = biological target: HIV-1 envelope glycoprotein (Env, gp120) of virus 8318 (HIV-1)
[16] = biological target: HIV-1 envelope glycoprotein (Env, gp120) of virus 1413 (HIV-1)
[17] = biological target: HIV-1 envelope glycoprotein (Env, gp120) of virus 7103 (HIV-1)
[18] = biological target: HIV-1 envelope glycoprotein (Env, gp120) of virus 8320 (HIV-1)
[19] = biological target: HIV-1 envelope glycoprotein (Env, gp120) of virus VS049 (HIV-1)
[20] = biological target: HIV-1 envelope glycoprotein (Env, gp120) of virus 1003 (HIV-1)
[21] = biological target: HIV-1 envelope glycoprotein (Env, gp120) of virus 8117 (HIV-1)
[22] = biological target: HIV-1 envelope glycoprotein (Env, gp120) of virus 8106 (HIV-1)
[23] = biological target: HIV-1 envelope glycoprotein (Env, gp120) of virus 302076 (HIV-1)
[24] = biological target: HIV-1 envelope glycoprotein (Env, gp120) of virus 7595 (HIV-1)
[25] = biological target: HIV-1 envelope glycoprotein (Env, gp120) of virus 7141 (HIV-1)
[26] = biological target: HIV-1 envelope glycoprotein (Env, gp120) of virus 7467 (HIV-1)
[27] = biological target: HIV-1 envelope glycoprotein (Env, gp120) of virus 92US727 (HIV-1)
[28] = biological target: HIV-1 envelope glycoprotein (Env, gp120) of virus 7552 (HIV-1)
[29] = biological target: HIV-1 envelope glycoprotein (Env, gp120) of virus REJO (HIV-1)
[30] = biological target: HIV-1 envelope glycoprotein (Env, gp120) of virus 7714 (HIV-1)
[31] = biological target: HIV-1 envelope glycoprotein (Env, gp120) of virus 8134 (HIV-1)
[32] = biological target: HIV-1 envelope glycoprotein (Env, gp120) of virus VS004 (HIV-1)
[33] = biological target: HIV-1 envelope glycoprotein (Env, gp120) of virus VS026 (HIV-1)
[34] = biological target: HIV-1 envelope glycoprotein (Env, gp120) of virus VS044 (HIV-1)
[35] = biological target: HIV-1 envelope glycoprotein (Env, gp120) of virus THRO (HIV-1)
[36] = biological target: HIV-1 envelope glycoprotein (Env, gp120) of virus VS039 (HIV-1)
[37] = biological target: HIV-1 envelope glycoprotein (Env, gp120) of virus VS030 (HIV-1)
[38] = biological target: HIV-1 envelope glycoprotein (Env, gp120) of virus VS043 (HIV-1)
[39] = biological target: HIV-1 envelope glycoprotein (Env, gp120) of virus 1012 (HIV-1)
[40] = biological target: HIV-1 envelope glycoprotein (Env, gp120) of virus VS052 (HIV-1)

Binder	Virus Neutralization Potency [1] [µg/mL]	Virus Neutralization Potency [2] [µg/mL]	Virus Neutralization Potency [3] [µg/mL]	Virus Neutralization Potency [4] [µg/mL]	Virus Neutralization Potency [5] [µg/mL]	Virus Neutralization Potency [6] [µg/mL]	Virus Neutralization Potency [7] [µg/mL]	Virus Neutralization Potency [8] [µg/mL]	Virus Neutralization Potency [9] [µg/mL]	Virus Neutralization Potency [10] [µg/mL]	Virus Neutralization Potency [11] [µg/mL]	Virus Neutralization Potency [12] [µg/mL]	Virus Neutralization Potency [13] [µg/mL]	Virus Neutralization Potency [14] [µg/mL]	Virus Neutralization Potency [15] [µg/mL]	Virus Neutralization Potency [16] [µg/mL]	Virus Neutralization Potency [17] [µg/mL]	Virus Neutralization Potency [18] [µg/mL]	Virus Neutralization Potency [19] [µg/mL]	Virus Neutralization Potency [20] [µg/mL]	also measured
Antibody 3.1.5-1 (antibody, human IgG1, kappa) heavy: QVQLLQSGAAVTKPGASVRVSCEASGYNIRDYFIHWWRQAPGQGLQWVGWINPKTGQPNNPRQFQGRVSLTRHASWDFDTFSFYMDLKALRSDDTAVYFCARQRSDYWDFDVWGSGTQVTVSSASTKGPSVFPLAPSSKSTSGGTAALGCLVKDYFPEPVTVSWNSGALTSGVHTFPAVLQSSGLYSLSSVVTVPSSSLGTQTYICNVNHKPSNTKVDKKVEPKSCDKTHTCPPCPAPELLAGPDVFLFPPKPKDTLMISRTPEVTCVVVDVSHEDPEVKFNWYVDGVEVHNAKTKPREEQYNSTYRVVSVLTVLHQDWLNGKEYKCKVSNKALPLPEEKTISKAKGQPREPQVYTLPPSREEMTKNQVSLTCLVKGFYPSDIAVEWESNGQPENNYKTTPPVLDSDGSFFLYSKLTVDKSRWQQGNVFSCSVLHEALHSHYTQKSLSLSPGK light: not shown	0.16	1.16	1.81	0.3	0.04	1.94	0.16	0.06	0.27	0.55	1.27	1.03	0.03	0.1	0.36	4.3	0.91	1.33	20.4	1.02	Virus Neutralization Potency [21]: 1.02 µg/mL; Virus Neutralization Potency [22]: 1.45 µg/mL; Virus Neutralization Potency [23]: 0.06 µg/mL; Virus Neutralization Potency [24]: 3.56 µg/mL; Virus Neutralization Potency [25]: 3.31 µg/mL; Virus Neutralization Potency [26]: 0.12 µg/mL; Virus Neutralization Potency [27]: 12 µg/mL; Virus Neutralization Potency [28]: > 80 µg/mL; Virus Neutralization Potency [29]: 0.02 µg/mL; Virus Neutralization Potency [30]: 1.5 µg/mL; Virus Neutralization Potency [31]: 2.78 µg/mL; Virus Neutralization Potency [32]: 1.55 µg/mL; Virus Neutralization Potency [33]: 0.1 µg/mL; Virus Neutralization Potency [34]: 0.16 µg/mL; Virus Neutralization Potency [35]: 2.7 µg/mL; Virus Neutralization Potency [36]: 0.12 µg/mL; Virus Neutralization Potency [37]: 6.86 µg/mL; Virus Neutralization Potency [38]: 0.54 µg/mL; Virus Neutralization Potency [39]: 1.19 µg/mL
Antibody 2.2.5-1 (antibody, human IgG1, kappa) heavy: QVHLSQSGAAVTKPGASVRVSCEASGYKIRDHFIHWWRQAPGQGLQWVGWINPKTGQPNNPRQFQGRVSLTRHASWDFDTFSFYMDLKAVRSDDTAIYFCARQRSDYWDFDVWGSGTQVTVSSASTKGPSVFPLAPSSKSTSGGTAALGCLVKDYFPEPVTVSWNSGALTSGVHTFPAVLQSSGLYSLSSVVTVPSSSLGTQTYICNVNHKPSNTKVDKKVEPKSCDKTHTCPPCPAPELLAGPDVFLFPPKPKDTLMISRTPEVTCVVVDVSHEDPEVKFNWYVDGVEVHNAKTKPREEQYNSTYRVVSVLTVLHQDWLNGKEYKCKVSNKALPLPEEKTISKAKGQPREPQVYTLPPSREEMTKNQVSLTCLVKGFYPSDIAVEWESNGQPENNYKTTPPVLDSDGSFFLYSKLTVDKSRWQQGNVFSCSVLHEALHSHYTQKSLSLSPGK light: not shown	0.11	0.95	1.1	0.2	0.02	1.21	0.11	0.04	0.15	0.58	3.51	0.77	0.03	0.1	0.33	3.62	0.78	1.21	10.8	0.78	Virus Neutralization Potency [40]: 0.2 µg/mL; Virus Neutralization Potency [21]: 0.75 µg/mL; Virus Neutralization Potency [22]: 0.94 µg/mL; Virus Neutralization Potency [23]: 0.06 µg/mL; Virus Neutralization Potency [24]: 2.94 µg/mL; Virus Neutralization Potency [25]: 1.75 µg/mL; Virus Neutralization Potency [26]: 0.07 µg/mL; Virus Neutralization Potency [27]: 16.7 µg/mL; Virus Neutralization Potency [28]: > 80 µg/mL; Virus Neutralization Potency [29]: 0.01 µg/mL; Virus Neutralization Potency [30]: 0.8 µg/mL; Virus Neutralization Potency [31]: 1.74 µg/mL; Virus Neutralization Potency [32]: 3.22 µg/mL; Virus Neutralization Potency [33]: 0.06 µg/mL; Virus Neutralization Potency [34]: 0.12 µg/mL; Virus Neutralization Potency [35]: 1.22 µg/mL; Virus Neutralization Potency [36]: 0.06 µg/mL; Virus Neutralization Potency [37]: 4.22 µg/mL; Virus Neutralization Potency [38]: 0.41 µg/mL; Virus Neutralization Potency [39]: 0.98 µg/mL
